What was measured:
Escherichia coli = assay: bactericidal activity, disinfection of lawn test objects / suspended culture; format: cell-based; settings: concentration 0.2 % by mass
Staphylococcus aureus = assay: as above; format: cell-based; settings: concentration 0.2 % by mass
pig ascarid eggs = assay: ovocidal activity on helminthic eggs; settings: concentration 2.0 % by mass

Row | Compound | Death of micro-organisms, % E.coli (Escherichia coli) [%] | Death of micro-organisms, % S.aureus (Staphylococcus aureus) [%] | Death of ascaridal eggs, % after 24 hours (pig ascarid eggs) [%] | Death of ascaridal eggs, % after 48 hours (pig ascarid eggs) [%]
1 | O=[N+]([O-])c1ccc(C(O)C(CO)N=P(Cl)(Cl)Oc2ccccc2)cc1 (stereo not drawn) | 100.0 | 95.0 | – | –
2 | O=[N+]([O-])c1ccc(C(Cl)C(CCl)N=P(Cl)(Cl)Nc2ccccc2)cc1 (stereo not drawn) | – | – | 100.0 | 100.0
3 | tris-[D(-)-threo-3-para-nitrophenyl-2-dichloroacetamido-2-hydroxypropoxy] phosphazo-L(+)-threo-1-para-nitroplenyl-1-hydroxy 3-chloroisopropyl | – | – | 100.0 | 100.0

From EP0414894A1 (priority 1989, dated 1990)
